PubChem BioAssay AID504761 | Drosophila RNAi Screening Center | 2011

Purpose: 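Insect host genes that dengue virus relies on to spread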 (primary screen)
Cells: D.Mel-2 cells from Drosophila
Reagents: long dsRNA against Drosophila genes
Challenge: infection with dengue virus type 2; dose and infection time not stated
Read-out: 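Per well on two replicate plates, imaging gave the percent of cells positive for viral envelope protein, ranked by infection, and a nuclear count of cells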
Direction: infection score: higher = more virus-infected cells; cell count: higher = more cells in the well
Rule for the call: 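Very low infection ranking in both replicate wells (chance probability at most 0.065), then a retest showing infection dropped 1.5-fold or more at p below 0.05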
Calls: active = confirmed: knock-down lowers infection; inactive = not picked or not confirmed
The deposit covers about 22,000 reagents; shown is a random part of those with a known target gene and a result. Of all reagents, 116 (0.52%) are marked active. 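Calls depend on retest data that are not deposited; infection was ranked per plate without normalising between plates; the unit of the infection score is not given.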 The raw values are shown without normalisation. The numbers tell different reagents against one gene apart. A plus sign joins genes that one reagent is predicted to hit. Not stated in the record: the amount of reagent, the time to read-out.

| target gene | dsRNA no. | infection score, replicate 1 | infection score, replicate 2 | cell count, replicate 1 | cell count, replicate 2 | Outcome |
| --- | --- | --- | --- | --- | --- | --- |
| CG7789 | 1 | 5.61 | 6.34 | 6473 | 6627 | inactive |
| nvd (neverland) | 1 | 2.24 | 3.65 | 6216 | 6679 | inactive |
| nvd (neverland) | 2 | 2.3 | 1.27 | 6787 | 6146 | inactive |
| Atg10 + CG18853 + CG12822 | 1 | 1.93 | 2.05 | 5809 | 5845 | inactive |
| Polr3C (RNA polymerase III subunit C) | 1 | 8.31 | 9.46 | 5054 | 5689 | inactive |
| Polr3C (RNA polymerase III subunit C) | 2 | 2.33 | 17.4 | 5833 | 5424 | inactive |
| Cyp308a1 (Cytochrome P450 308a1) | 1 | 0.64 | 2.27 | 781 | 5603 | inactive |
| Cyp308a1 (Cytochrome P450 308a1) | 2 | 4.91 | 4.03 | 6215 | 6330 | inactive |
| ATPsynC (ATP synthase, subunit C) | 1 | 2.86 | 3.43 | 5204 | 5622 | inactive |
| CG42486 + CG14933 | 1 | 2.32 | 10.7 | 6973 | 3995 | inactive |
| nej (nejire) | 1 | 15.6 | 12.8 | 5155 | 5653 | inactive |
| nej (nejire) | 2 | 7.06 | 2.34 | 1897 | 2739 | inactive |
| nej (nejire) | 3 | 13.2 | 7.07 | 4695 | 4651 | inactive |
| nej (nejire) | 4 | 4.49 | 4.55 | 5588 | 5764 | inactive |
| CG7099 | 1 | 21 | 37.9 | 3216 | 5080 | inactive |
| CG7099 | 2 | 7.3 | 6.75 | 6148 | 5574 | inactive |
| BomS3 (Bomanin Short 3) | 1 | 0.33 | 19.5 | 5974 | 6426 | inactive |
| BomS3 (Bomanin Short 3) | 2 | 6.75 | 10.6 | 993 | 3209 | inactive |
| CG17896 | 1 | 8.59 | 7.55 | 6905 | 7037 | inactive |
| CG17896 | 2 | 6.9 | 7.72 | 3056 | 2525 | inactive |
| Rtf1 | 1 | 17.1 | 15.9 | 5326 | 5451 | inactive |
| Rtf1 | 2 | 8.27 | 14.3 | 4630 | 2627 | inactive |
| CG12693 | 1 | 4.57 | 3.08 | 1488 | 6717 | inactive |
| ebd1 (earthbound 1) | 1 | 8.37 | 8.63 | 6597 | 6550 | inactive |
| ebd1 (earthbound 1) | 2 | 27.1 | – | 5092 | 364 | inactive |

The list goes on, starting with the last 5 of the part before.
| target gene | dsRNA no. | infection score, replicate 1 | infection score, replicate 2 | cell count, replicate 1 | cell count, replicate 2 | Outcome |
| --- | --- | --- | --- | --- | --- | --- |
| Rtf1 | 1 | 17.1 | 15.9 | 5326 | 5451 | inactive |
| Rtf1 | 2 | 8.27 | 14.3 | 4630 | 2627 | inactive |
| CG12693 | 1 | 4.57 | 3.08 | 1488 | 6717 | inactive |
| ebd1 (earthbound 1) | 1 | 8.37 | 8.63 | 6597 | 6550 | inactive |
| ebd1 (earthbound 1) | 2 | 27.1 | – | 5092 | 364 | inactive |
| EndoG (Endonuclease G) | 1 | 6.81 | 6.55 | 6354 | 6594 | inactive |
| EndoG (Endonuclease G) | 2 | 7.07 | 21.8 | 6646 | 5147 | inactive |
| EndoG (Endonuclease G) | 3 | 3.4 | 2.89 | 5734 | 6119 | inactive |
| Prp40 (pre-mRNA processing factor 40) | 1 | 3.95 | 2.65 | 4736 | 4790 | inactive |
| Echs1 (Enoyl-CoA hydratase, short chain 1) | 1 | 9.27 | 6.69 | 5769 | 7085 | inactive |
| Reg-5 (Rhythmically expressed gene 5) | 1 | 9.89 | 49 | 6211 | 4361 | inactive |
| MCU (Mitochondrial calcium uniporter) | 1 | 1.36 | 6.89 | 6233 | 6151 | inactive |
| Agps (Alkylglycerone phosphate synthase) | 1 | 17.5 | 10.5 | 5348 | 4699 | inactive |
| Agps (Alkylglycerone phosphate synthase) | 2 | 7.22 | 7.07 | 1843 | 5885 | inactive |
| CG32444 | 1 | 5.73 | 10.2 | 6894 | 6900 | inactive |
| Lcp65Ab2 + Lcp65Ab1 | 1 | 2.18 | 3.11 | 5885 | 5761 | inactive |
| Lcp65Ab2 + Lcp65Ab1 | 2 | 1.03 | 6.22 | 6186 | 6111 | inactive |
| Lcp65Ab2 + Lcp65Ab1 | 3 | 15.3 | 3.46 | 6569 | 5890 | inactive |
| hog | 1 | 1.5 | 0.68 | 6525 | 6725 | inactive |
| hog | 2 | 1.9 | 1.32 | 6630 | 6043 | inactive |
